Test results taken from paper PMC4479931, “The Disulfide Bond Cys255-Cys279 in the Immunoglobulin-Like Domain of Anthrax Toxin Receptor 2 Is Required for Membrane Insertion of Anthrax Protective Antigen Pore” (2015).

Molecular target: protective antigen PA63 heptamer, (PA63)7 (heptameric prepore) (Bacillus anthracis)

protective antigen PA63 heptamer, (PA63)7 (heptameric prepore)
stoichiometry N: 7
